Data: ChEMBL document CHEMBL1125873 (J Med Chem, 1991)

Tests used:
[1] = Loss of first equivalent halide ion using Chloride ion electrode experiments.; format: ADME
[2] = Half-life value of the compound.; format: ADME

| Compound | k x10e3 [1] | T1/2 [2] |
| --- | --- | --- |
| CN(CCCl)P(=O)(O)OCC1CCCC1 | 13 min⁻¹ | 54 min |
| O=P(O)(OCC1CCCC1)N(CCBr)CCBr | 58 min⁻¹ | 12 min |
| O=P(O)(OCC1CCCC1)N(CCCl)CCCl | 3 min⁻¹ | 230 min |
| CN(CCBr)P(=O)(O)OCC1CCCC1 | 131 min⁻¹ | 5.3 min |
| NP(=O)(O)N(CCCl)CCCl | 41 min⁻¹ | 17 min |
